Laboratory results reported in US20020076693A1, “Novel cell surface receptor for HIV retroviruses, therapeutic and diagnostic uses” (priority 1997, published 2002).
Several values for one entry are separate records, joined by “and”; a condition that tells them apart may be missing. Identical values can stand only once. Like-named read-outs stand apart in the source and are kept apart here.

Key:
[1] = target: gp120 binding to the V3 loop-BPs; details: read-out: IC50 for the inhibition of gp120 binding to the V3 loop-BPs; TASP constructs, gp120 HIV-1 Lai, biosensor
[2] = i.v.; for effects on the behaviour of rats / innocuity: up to 3 mg/kg

5[Kψ(CH2N)PR]-TASP
IC50 [1]: ~25 nM and 25 nM | effect on examination of sacrificed rats ([2]; sacrificed at 48 hours): No apparent effect | effects on the behaviour of rats / innocuity [2]: No apparent effects | effects on the behaviour of rats / innocuity ([2]; listed as 5[Kψ (CH2N)PR]-TASP): total inoccuity
